A mixed list of measured activities; the numbers were collected in NIAID ChemDB.

MIC bound: limit read from a one-dose screen.

compound,strain or isolate,species,test,read by,dose,cell line,protein,measure,result
O=S(=O)([O-])c1cccc(O)c1,TYPE 3,Adenovirus,culture,cytopathic effect,5 µg/mL,Human embryonic lung cells,,inhibition,0%
COc1c(Cl)c(C)c(Cl)c(C)c1C(=O)O,H37Rv,Mycobacterium tuberculosis,culture,,,,,MIC,100 µg/mL
CCOC(=O)c1cc2c(-c3ccccc3)c(-c3ccccc3)c(-c3ccccc3)c(-c3ccccc3)n2n1,H37Rv,Mycobacterium tuberculosis,culture,resazurin,6.25 µg/mL,,,inhibition,55%
Br.CCSC(=N)N,H37Rv,Mycobacterium tuberculosis,culture,,,,,MIC,>100 µg/mL
Clc1ccc(CCNCCNC2CCCCCCC2)c(Cl)c1,,Mycobacterium tuberculosis,culture,,,,,MIC,50 µM
O=C(O)c1cc(=O)[nH]c(=O)[nH]1,H37Rv,Mycobacterium tuberculosis,culture,BACTEC,128 µg/mL,,,inhibition,66%
COc1ccc(-c2cncc(N3CCN(c4ccc(Cl)c(Cl)c4)CC3)n2)cc1OC,,Cytomegalovirus,target,,,,UL97 kinase,IC50,<100 µM
CC1=CCC(=O)O1,H37Rv,Mycobacterium tuberculosis,culture,,,,,MIC,>100 µg/mL
OCc1ccc(-c2cncc(N3CCN(c4ccc(Cl)c(Cl)c4)CC3)n2)cc1,,Cytomegalovirus,target,,,,UL97 kinase,IC50,<10 µM
COc1ccc2c(c1)[n+]([O-])c(-c1ccccc1)c(N)[n+]2[O-],KM-R,Mycobacterium tuberculosis,culture,,,,,MIC,3.1 µg/mL
O=S(=O)(O)c1cccc2c(O)cccc12,TYPE 3,Adenovirus,culture,cytopathic effect,10 µg/mL,Human embryonic lung cells,,inhibition,0%
CCN(CCNS(C)(=O)=O)c1ccc(N)cc1,H37Rv,Mycobacterium tuberculosis,culture,,,,,MIC,>100 µg/mL
COc1ccc(N2CCN(c3cncc(-c4ccc(CO)cc4)n3)CC2)cc1OC,,Cytomegalovirus,target,,1 µM,,UL97 kinase,inhibition,<50%
CCCCCCCCCCCCCCCCCCNCCNC12CC3CC(CC(C3)C1)C2,,Mycobacterium tuberculosis,culture,,,,,MIC,25 µM
CN(C)c1cccc(-c2cncc(N3CCN(c4ccncc4)CC3)n2)c1,,Cytomegalovirus,target,,10 µM,,UL97 kinase,inhibition,>15%
N#CCC(=O)N/N=C1\C(=O)N(c2cc(Cl)ccc2Cl)C(=O)C(=O)C1c1nc2ccccc2s1,H37Rv,Mycobacterium tuberculosis,culture,BACTEC,,,,MIC bound,>12.5 µg/mL
CC(Br)C(=O)NCC(=O)NCC(=O)O,H37Rv,Mycobacterium tuberculosis,culture,,,,,MIC,>100 µg/mL
CN1CN(C)N(C(=O)c2ccccc2)CN1C(=O)c1ccccc1,H37Rv,Mycobacterium tuberculosis,culture,BACTEC,,,,MIC bound,>12.5 µg/mL
CCOC(=O)N1CCC(Nc2nnc(NC(=O)c3c(OCC)ccc4ccccc34)s2)CC1,,Human cytomegalovirus,target,,,,Polymerase,IC50,<25 µM
CCC(CC)[C@H](NC(C)=O)[C@@H]1[C@H](O)[C@@H](C(=O)O)C[C@H]1N=C(N)N,H1N1 A/Bayern/09/95,Influenza A virus,culture,,,MDCK,,EC50,1 µM
O=C(Nc1nnc(NCCc2c[nH]c3ccccc23)s1)c1ccc(S(=O)(=O)F)cc1,,Human cytomegalovirus,target,,,,Polymerase,IC50,<25 µM
Cl.O=C(OCCCCCCN1CCOCC1)C(c1ccccc1)c1ccccc1,H37Rv,Mycobacterium tuberculosis,culture,,,,,MIC,>100 µg/mL
O=C(Nc1c(S(=O)(=O)[O-])cc2cc(S(=O)(=O)[O-])cc(O)c2c1O)c1ccccc1,,Rhinovirus,culture,cytopathic effect,50 µg/mL,Human amnion AV3 cells,,inhibition,85%
OCc1cccc(-c2cncc(N3CCN(c4ccncc4)CC3)n2)c1,,Cytomegalovirus,target,,10 µM,,UL97 kinase,inhibition,>15%
C#CC[C@@H](C(=O)N[C@H](/C=C/C(=O)OCC)C[C@@H]1CCNC1=O)n1cccc(NC(=O)c2cc(C)on2)c1=O,Serotype 1A,Rhinovirus,culture,cytopathic effect / XTT,,H1-HELA,,EC50,0.036 µM
CC12OC1(C)C1C(=O)OCC1C2=O,H37Rv,Mycobacterium tuberculosis,culture,BACTEC,,,,MIC bound,>12.5 µg/mL
CC(=O)Oc1ccc(NCC(=O)O)cc1,H37Rv,Mycobacterium tuberculosis,culture,,,,,MIC,>100 µg/mL
Cc1ccc2c(c1)Nc1ccccc1C(=O)N2,H37Rv,Mycobacterium tuberculosis,culture,BACTEC,,,,MIC bound,>12.5 µg/mL
OCCNCCOc1ccccc1-c1ccccc1,H37Rv,Mycobacterium tuberculosis,culture,,,,,MIC,>100 µg/mL
c1ccc(N=C2C(=Nc3ccccc3)N(C3CCCCC3)C(=NC3CCCCC3)N2c2ccccc2)cc1,H37Rv,Mycobacterium tuberculosis,culture,BACTEC,12.5 µg/mL,,,inhibition,0%
O=C1CCCN1CCCNCCNCCCCc1ccccc1,,Mycobacterium tuberculosis,culture,,,,,MIC,25 µM
Cc1cc(-c2ccc(N=Nc3c(S(=O)(=O)O)cc4cc(S(=O)(=O)O)cc(N)c4c3O)c(C)c2)ccc1N=Nc1c(S(=O)(=O)O)cc2cc(S(=O)(=O)O)cc(N)c2c1O,TYPE 3,Adenovirus,culture,cytopathic effect,10 µg/mL,Human amnion AV3 cells,,inhibition,0%
CCO/N=C/c1ccc(OCCC2CCN(c3ccc(C)nn3)CC2)cc1,thompson (ICAM-1 receptor group 6,Rhinovirus,culture,neutral red,,KB,,EC50,0.007 µM
Cc1c(O)ccc2c(O)c(NC(=O)c3ccc4c(c3)CCC(C)(C)O4)c(=O)oc12,H37Rv,Mycobacterium tuberculosis,culture,BACTEC,,,,MIC bound,>12.5 µg/mL
O=C1c2c(O)cc(S(=O)(=O)[O-])c(NCS(=O)(=O)[O-])c2C(=O)c2c(O)cc(S(=O)(=O)[O-])c(NCS(=O)(=O)[O-])c21.[Na+].[Na+].[Na+].[Na+],H37Rv,Mycobacterium tuberculosis,culture,,,,,MIC,>100 µg/mL
COc1ccc(N=C2C(=Nc3ccc(OC)cc3)N(S(=O)(=O)c3ccc(C)cc3)C(=S)N2c2ccccc2)cc1,H37Rv,Mycobacterium tuberculosis,culture,BACTEC,12.5 µg/mL,,,inhibition,0%
CCCCC(CC)CN1CN(CC(CC)CCCC)CC(C)(NCCN[C@@H](C)C2CCCCC2)C1,,Mycobacterium tuberculosis,culture,,,,,MIC,25 µM
O=C(NNC(=S)NC1OC(CO)C(O)C(O)C1O)c1cccc(C(=O)NNC(=S)NC2OC(CO)C(O)C(O)C2O)n1,H37Rv,Mycobacterium tuberculosis,culture,BACTEC,12.5 µg/mL,,,inhibition,17%
O=C(Nc1nnc(NCC2CCCCC2)s1)c1ccc([N+](=O)[O-])o1,,Human cytomegalovirus,target,,,,Polymerase,IC50,>25 µM
Nc1ccccc1S(=O)(=O)O,,Rhinovirus,culture,cytopathic effect,50 µg/mL,Human embryonic lung cells,,inhibition,10%
c1ccc2c(-c3cncc(N4CCN(c5cnccn5)CC4)n3)cccc2c1,,Cytomegalovirus,target,,,,UL97 kinase,IC50,<100 µM
O=S(=O)([O-])c1ccc2c(O)cc(S(=O)(=O)[O-])cc2c1,,Herpes simplex virus,culture,cytopathic effect,50 µg/mL,Human conjunctiva cells,,inhibition,0%
COc1ccc(N2CCN(c3cncc(-c4ccc(C(N)=O)cc4)n3)CC2)cc1,,Cytomegalovirus,target,,,,UL97 kinase,IC50,<1 µM
O=C1CC(SC(=S)N2CCCCC2)C(=O)N1c1ccccc1,INH-r,Mycobacterium tuberculosis,culture,,,,,MIC,6.4 µg/mL
CCCCCCCCCCCNc1nnc(NC(=O)c2c(OCC)ccc3ccccc23)s1,,Human cytomegalovirus,target,,,,Polymerase,IC50,<25 µM
CN1C(=O)N(C)C2CC(=O)c3ccc(C(F)(F)F)cc3N2C1=O,H37Rv,Mycobacterium tuberculosis,culture,BACTEC,,,,MIC bound,>12.5 µg/mL
O=S(=O)(NCCNS(=O)(=O)c1ccccc1)c1ccccc1,H37Rv,Mycobacterium tuberculosis,culture,,,,,MIC,100 µg/mL
CCCCCCCCCCCNCCNCCC,,Mycobacterium tuberculosis,culture,,,,,MIC,25 µM
O=C(/C=C/c1ccccc1)Nc1nnc(NC2CCCCCC2)s1,,Human cytomegalovirus,target,,,,Polymerase,IC50,>25 µM
Cl.O=C1CCC2N1CCC1CCCCN12,H37Rv,Mycobacterium tuberculosis,culture,BACTEC,,,,MIC bound,>12.5 µg/mL
O=S(=O)(Nc1ccccn1)c1cccnc1,H37Rv,Mycobacterium tuberculosis,culture,,,,,MIC,>100 µg/mL
Cc1nn(C(=O)c2ccncc2)c(-c2ccccc2)c1N=Nc1nc2ccc([N+](=O)[O-])cc2s1,H37Rv,Mycobacterium tuberculosis,culture,resazurin,,,,MIC bound,<6.25 µg/mL
C[C@H](Cc1ccc(O)c(O)c1)[C@@H](C)Cc1ccc(O)c(O)c1,ATCC 10231,Candida albicans,culture,broth dilution,,,,MIC50,125 µg/mL
N#CCCNc1cccc(C(F)(F)F)c1,H37Rv,Mycobacterium tuberculosis,culture,,,,,MIC,>100 µg/mL
CC(=O)c1cccc(-c2cncc(N3CCN(c4ccccn4)CC3)n2)c1,,Cytomegalovirus,target,,1 µM,,UL97 kinase,inhibition,<50%
COc1cc(S(N)(=O)=O)ccc1Cl,H37Rv,Mycobacterium tuberculosis,culture,,,,,MIC,>100 µg/mL
NS(=O)(=O)c1ccc(CCNc2nnc(NC(=O)CCCCCl)s2)cc1,,Human cytomegalovirus,target,,,,Polymerase,IC50,>25 µM
CCC(C)(O)c1cnc(CC(C)C)c(=O)n1O,H37Rv,Mycobacterium tuberculosis,culture,BACTEC,,,,MIC,≥12.8 µg/mL
COc1ccc(CCNCCNCc2ccc(OC)cc2OC)cc1,,Mycobacterium tuberculosis,culture,,,,,MIC,12.5 µM
Fc1ccc(N2CCCCC2)c(NC(=S)c2ccncc2)c1,,,host protein,kinase activity,10 µM,,CTK,inhibition,2.1%
CCOc1ccc2ccccc2c1C(=O)Nc1nnc(NCc2cccs2)s1,,Human cytomegalovirus,target,,,,Polymerase,IC50,<25 µM
Cc1ccc(N2CCN(c3cncc(-c4ccc(F)c(Cl)c4)n3)CC2)cc1C,,Cytomegalovirus,target,,10 µM,,UL97 kinase,inhibition,>15%
COc1ccc(C(=O)CC(=O)Nc2ccccc2)cc1,H37Rv,Mycobacterium tuberculosis,culture,,,,,MIC,50 µg/mL
Cc1c(NC(=S)Nc2ccccc2)c(=O)n(-c2ccccc2)n1C,H37Rv,Mycobacterium tuberculosis,culture,BACTEC,,,,MIC bound,>12.8 µg/mL
NC(=S)c1ccccc1,H37Rv,Mycobacterium tuberculosis,culture,,,,,MIC,>100 µg/mL
O=C(Nc1cccnc1)c1ccc(CSc2ccc(Cl)cc2)o1,H37Rv,Mycobacterium tuberculosis,culture,BACTEC,,,,MIC bound,>12.5 µg/mL
c1ccc2c3c(oc2c1)CCCC3,H37Rv,Mycobacterium tuberculosis,culture,,,,,MIC,>100 µg/mL
COc1ccc(CNCCNCCc2ccc(F)cc2)c(OC)c1,,Mycobacterium tuberculosis,culture,,,,,MIC,50 µM
COc1ccc(C(C)(C)C)cc1OC,H37Rv,Mycobacterium tuberculosis,culture,,,,,MIC,>100 µg/mL
CCCCCCCCCCCNCCNCC(C)c1ccccc1,,Mycobacterium tuberculosis,culture,,,,,MIC,6.25 µM
Cc1ccc(O)c(N)c1,H37Rv,Mycobacterium tuberculosis,culture,,,,,MIC,50 µg/mL
Cc1cc(=O)oc(O)c1N=Nc1ccc(N(C)C)cc1,H37Rv,Mycobacterium tuberculosis,culture,resazurin,,,,MIC bound,>6.25 µg/mL
CC(=O)Oc1c(C)cccc1C(=O)O,H37Rv,Mycobacterium tuberculosis,culture,,,,,MIC,100 µg/mL
C=CCc1ccc(O)c(OC)c1,2427,Candida albicans,culture,turbidity,,,,MIC90,500 µg/mL
CC[N+](C)(CC)CCNc1cc2c(c3c(=O)c4ccccc4sc13)CCCC2,H37Rv,Mycobacterium tuberculosis,culture,BACTEC,12.5 µg/mL,,,inhibition,89%
CC(=O)Nc1cc(Cl)cc2cccnc12,H37Rv,Mycobacterium tuberculosis,culture,,,,,MIC,100 µg/mL

ECn is the concentration giving n% inhibition of infection, replication or growth. ICn: concentration for n% inhibition. A number after MIC or MFC names an inhibition level or a share of isolates. Rows are shuffled and stem from different studies. Blank or dashed fields: not listed here. Percent inhibition refers to the dose given; in toxicity tests it is the harm to the cells.